Literature values in PubChem BioAssay AID977608.

Columns and labels:
Assay in all cases: literature IC50 values for PDB complexes, PDB-derived complexes (AID 977608)
[1] = target: heat-labile enterotoxin b chain; details: PDB protein-ligand complexes, protein: heat-labile enterotoxin b chain, chain 1EFI_D,1EFI_E, PDB entry 1EFI
[2] = target: heat-labile enterotoxin; details: PDB protein-ligand complexes, protein: heat-labile enterotoxin, chain 1LT5_D,1LT5_E, PDB entry 1LT5
[3] = target: SARS-CoV M pro; details: PDB protein-ligand complexes, protein: SARS-CoV M pro, chain 2VJ1_B, PDB entry 2VJ1

## Nc1ccc(O[C@H]2O[C@H](CO)[C@H](O)[C@H](O)[C@H]2O)cc1
[1]
  IC50: 12000 µM

## OC[C@H]1O[C@@H](S[C@@H]2O[C@H](CO)[C@H](O)[C@H](O)[C@H]2O)[C@H](O)[C@@H](O)[C@H]1O
[2]
  IC50: 2000 µM

## O=Cc1ccccc1
[3]
  IC50: 5 µM
